# Values of other authors as cited in patent US20230042509A1, “TREATMENT FOR DISEASES CAUSED BY RNA VIRUSES” (Amerimmune LLC, priority 2021, published 2023).
# B1: eculizumab: targeted therapy reported to reduce inflammatory markers and CRP in moderate to severe COVID-19 (antibody, chains of the INN, looked up)
# heavy: QVQLVQSGAEVKKPGASVKVSCKASGYIFSNYWIQWVRQAPGQGLEWMGEILPGSGSTEYTENFKDRVTMTRDTSTSTVYMELSSLRSEDTAVYYCARYFFGSSPNWYFDVWGQGTLVTVSSASTKGPSVFPLAPCSRSTSESTAALGCLVKDYFPEPVTVSWNSGALTSGVHTFPAVLQSSGLYSLSSVVTVPSSNFGTQTYTCNVDHKPSNTKVDKTVERKCCVECPPCPAPPVAGPSVFLFPPKPKDTLMISRTPEVTCVVVDVSQEDPEVQFNWYVDGVEVHNAKTKPREEQFNSTYRVVSVLTVLHQDWLNGKEYKCKVSNKGLPSSIEKTISKAKGQPREPQVYTLPPSQEEMTKNQVSLTCLVKGFYPSDIAVEWESNGQPENNYKTTPPVLDSDGSFFLYSRLTVDKSRWQEGNVFSCSVMHEALHNHYTQKSLSLSLG
# light: DIQMTQSPSSLSASVGDRVTITCGASENIYGALNWYQQKPGKAPKLLIYGATNLADGVPSRFSGSGSGTDFTLTISSLQPEDFATYYCQNVLNTPLTFGQGTKVEIKRTVAAPSVFIFPPSDEQLKSGTASVVCLLNNFYPREAKVQWKVDNALQSGNSQESVTEQDSKDSTYSLSSTLTLSKADYEKHKVYACEVTHQGLSSPVTKSFNRGEC
# Test system: COVID-19
# Conditions: moderate to severe COVID-19; cited from earlier work
molecule,measurement,value
B1,inflammatory markers and C-reactive protein (CRP),reduced
